A mixed list of measured activities; the numbers were collected in NIAID ChemDB.

All rows: growth or infection tests; species: Influenza A virus; method: plaque count; endpoint: EC50

Blank or dashed fields: not listed here. ECn: concentration that inhibits the pathogen or its effect by n%. Two numbers with a dash give a range or band. Conditions beyond the fields shown may differ between rows.

SMILES | strain | cell line | value
CC(=O)N[C@@H]1[C@@H](N=C(N)N)C=C(C(=O)O)O[C@H]1C[C@H](O)CO | A/Yamagata/32/89 | - | 0.004 µg/mL
NC12CC3CC(CC(C3)C1)C2 | Influenza A/Ishikawa/7/82 (H3N2) | MDCK | 10 µg/mL
CC(=O)N[C@H]1[C@H]([C@H](O)[C@H](O)CO)OC(C(=O)O)=C[C@@H]1N=C(N)N | A/Victoria/3/75 | MDCK | 0.008 µM
CC(N)C12CC3CC(CC(C3)C1)C2 | - | MDCK | 0.01 µg/mL
CCC(=O)N[C@@H]([C@@H]1OC(C(=O)O)=C[C@H](N=C(N)N)[C@H]1NC(C)=O)[C@H](O)CO | A/Yamagata/32/89 | - | 0.1 µg/mL
NC(=O)c1ncn([C@@H]2O[C@H](CO)[C@@H](O)[C@H]2O)n1 | - | MDCK | 3.99 µg/mL
CC(=O)N[C@H]1[C@H]([C@H](O)[C@H](O)CO)OC(C(=O)O)=C[C@@H]1N | H3N2 A/AICHI/2/68 | MDCK | 0.65 µM
NC12CC3CC(CC(C3)C1)C2 | A/HONG KONG/11/88 | MDCK | <3 µM
CCCCCCCCCCCCCCCC(=O)N[C@@H]([C@@H]1OC(C(=O)O)=C[C@H](N=C(N)N)[C@H]1NC(C)=O)[C@H](O)CO | A/Yamagata/32/89 | - | 0.4 µg/mL
C[C@@H]1CCC[C@@H]2C[C@@H](NC(=O)c3cc(Cl)cc(Cl)c3O)CCN21 | H1N1 A/WSN/33 | MDBK | 10–20 µg/mL
C#Cc1c(C(N)=O)ncn1[C@@H]1O[C@H](CO)[C@@H](O)[C@H]1O | A/Bangkok/10/83 (H1N1) | MDCK | 0.4 µg/mL
NC12CC3CC(CC(C3)C1)C2 | Influenza A/Ibaraki/1/90 (H3N2) | MDCK | 0.47 µg/mL
NC(=O)c1ncn([C@@H]2O[C@H](CO)[C@@H](O)[C@H]2O)c1O | A/Ishikawa | MDCK | 11.3 µg/mL
C[C@@H]1CCC[C@@H]2C[C@@H](NC(=O)c3cccc(O)c3O)CCN21 | H1N1 A/WSN/33 | MDBK | >20 µg/mL
CC1(C)C[C@H](O)C[C@@](C)(CNC(=O)c2cc(Cl)ccc2O)C1 | H-1 | - | 0.13 µg/mL
C[C@@H]1CCC[C@@H]2C[C@@H](NC(=O)c3ccc(N)c(Cl)c3)CCN21 | H1N1 A/WSN/33 | MDBK | >20 µg/mL
NC(=O)c1ncn([C@@H]2O[C@H](CO)[C@@H](O)[C@H]2O)n1 | B/Victoria/102/85 | MDCK | 10 µM
Cc1ccc(C(=O)N[C@H]2CCN3[C@H](CCC[C@H]3C)C2)c(O)c1 | H1N1 A/WSN/33 | MDBK | 4 µg/mL
NC12CC3CC(CC(C3)C1)C2 | B/Victoria/102/85 | MDCK | >30 µM
O=C(O[C@@H]1Cc2c(O)cc(O)cc2O[C@@H]1c1cc(O)c(O)c(O)c1)c1cc(O)c(O)c(O)c1 | H1N1 A/Yamagata/120/86 | MDCK | 200 µM
C[C@@H]1CCC[C@@H]2C[C@@H](NC(=O)c3ccccc3N)CCN21 | H1N1 A/WSN/33 | MDBK | 5–10 µg/mL

The first 3 rows once more:

SMILES,strain,cell line,value
CC(=O)N[C@@H]1[C@@H](N=C(N)N)C=C(C(=O)O)O[C@H]1C[C@H](O)CO,A/Yamagata/32/89,-,0.004 µg/mL
NC12CC3CC(CC(C3)C1)C2,Influenza A/Ishikawa/7/82 (H3N2),MDCK,10 µg/mL
CC(=O)N[C@H]1[C@H]([C@H](O)[C@H](O)CO)OC(C(=O)O)=C[C@@H]1N=C(N)N,A/Victoria/3/75,MDCK,0.008 µM